From US20240279279A1, “PROTEIN-DERIVED PEPTIDE FOR IMPROVING IMMUNITY AGAINST 2019 NOVEL CORONAVIRUS (2019-nCoV) AND USE THEREOF” (ZHEJIANG A&F UNIVERSITY, priority 2023, published 2024)
Values joined by “and” are separate entries in the source; they are usually repeats but may differ in a detail not shown here. Equal entries are not always repeated. Where two headings read alike, the source gives them in different places.

Tests used:
2019-nCoV M-pro [1] = target: T1, 2019-nCoV M-pro (Severe acute respiratory syndrome coronavirus 2, UniProt P0DTD1); assay: 2019-nCoV M-pro inhibitory activity, fluorescent decapeptide substrate; assay type: biochemical; details: for Inhibition rate: peptide concentration not printed (1.0-20.0 μM tested), 30° C.
T1 construct: 2019 novel coronavirus main protease (2019-nCoV M-pro)

2019-nCoV M-pro [2] = target: T1, 2019-nCoV M-pro; assay: 2019-nCoV M-pro inhibition mode experiment (Km, Vmax trends); assay type: biochemical
Vero-E6 cells = assay: Vero-E6 cytotoxicity, MTT; assay type: cell-based; details: 0 μM to 400 μM, 24 h
Method: (§1) The solutions (0, 25, 50, 100, 200, 400 μM; DMEM medium, Gibco Company) with different concentrations of WWNLN (obtained by solid-phase synthesis from Jiangsu Jitai Peptide Technology Co., Ltd.) and Vero-E6 cells (10^5 cells/mL) were added in a 96-well plate, and incubated statically at 37° C. for 24 h in an incubator; the 96-well plate was taken out from the incubator, added with MTT solution to each well at a final concentration of 0.5 mg/mL, where the MTT solution was prepared using phosphate buffer (NaCl: 137 mM, KCl: 2.7 mM, Na2HPO4: 10 mM, KH2PO4: 2 mM, pH=7.2-7.4). The cells were cultured statically at 37° C. for 4 h in a CO2 incubator (CO2 concentration: 5 v/v %). After centrifugation at 1,000 rpm for 5 min, the supernatant was removed, 150 μL of DMSO was added to each well, and placed on a shaker at 70 rpm for 10 min. The absorbance in each well was read using a microplate reader at a wavelength of 490 nm, and the cell viability was calculated using Graphpad Prism 8.0.1. In this example, all operations were conducted in the dark after adding the MTT solution.

[3] = Vero-E6 cytotoxicity, MTT; assay type: cell-based; details: Vero-E6 cells, read-out: Cell viability
Method: as §1

[4] = simulated gastrointestinal digestion stability (pepsin, trypsin) by RP-HPLC; assay type: in vitro ADME
Method: WWNLN (obtained by solid-phase synthesis from Jiangsu Jitai Peptide Technology Co., Ltd.) was diluted into a 100 μmol/L solution with hydrochloric acid with a pH value of 2. 0.016 g of pepsin (Beijing Solarbio Science & Technology Co., Ltd., P8390, pepsin activity 1 g: 3,000 U) was added to 1 mL of the diluted WWNLN sample solution, allowed to stand in a 37° C. water bath for 2 h, and samples were collected every 1 h and placed at 4° C. for later use. After 2 h, the WWNLN sample solution was taken out, and 1 mol/L sodium hydroxide was added to adjust the pH value of the WWNLN sample solution after pepsin enzymatic hydrolysis to 7, and 0.010 g trypsin (Beijing Solarbio Science & Technology Co., Ltd., T8150, pepsin activity 1 g: 250 U) was added, allowed to stand in a 37° C. water bath for 2 h, and samples were collected every 1 h and placed at 4° C. for later use. The WWNLN sample solution was injected into the RP-HPLC device for analysis through a filter membrane with a pore size of 0.22 μm. The elution conditions were the same as those in Example 4, part (1). Whether WWNLN was degraded after being digested by pepsin and trypsin was determined based on the peak area and peak elution time of the liquid phase spectrum.

[5] = thermal stability by RP-HPLC; assay type: physicochemical; details: 100 μmol/L in water, 20, 40, 60, 80, 100° C. for 2 h
Method: WWNLN (obtained by solid-phase synthesis from Jiangsu Jitai Peptide Technology Co., Ltd.) was diluted with distilled water into a 100 μmol/L solution, and solution that had not been treated at different temperatures was used as a blank control. The diluted WWNLN sample solution was placed in water bath conditions of 20, 40, 60, 80, and 100° C. for 2 h. The blank control and WWNLN sample solutions treated at different temperatures were injected into the RP-HPLC device for analysis through a filter membrane with a pore size of 0.22 μm. Detection wavelength was: 220 nm; column temperature was: 25° C. Mobile phase A was: lv/v % TFA+99 v/v % acetonitrile; mobile phase B was: lv/v % TFA+99 v/v % water. Elution conditions: 0 min to 25 min, 72 v/v % to 47 v/v % B (gradient elution); 25 min, 47 v/v % B (isocratic elution); 25 min to 25.1 min, 47 v/v % to 0 v/v % B (gradient elution), the column was eluted at a flow rate of 1.0 mL/min. Whether WWNLN degraded at different temperatures were determined based on the peak area and peak elution time of the liquid phase spectrum.

[6] = acid-base stability by RP-HPLC; assay type: physicochemical; details: 100 μmol/L, pH 2, 4, 6, 8, 10, 37° C. for 2 h
Method: WWNLN (obtained by solid-phase synthesis from Jiangsu Jitai Peptide Technology Co., Ltd.) was diluted with distilled water into a 100 μmol/L solution, and solution that had not been treated at different pH values was used as a blank control. The pH value of the diluted WWNLN sample solution was adjusted to 2, 4, 6, 8, and 10, respectively using 1 mol/L hydrochloric acid and 1 mol/L sodium hydroxide. The blank control and WWNLN sample solutions treated with different pH levels were placed in a 37° C. water bath for 2 h. The blank control and WWNLN solutions treated at different pH values were injected into the RP-HPLC device for analysis through a filter membrane with a pore size of 0.22 m. Detection wavelength was: 220 nm; column temperature was: 25° C. Mobile phase A was: lv/v % TFA+99 v/v % acetonitrile; mobile phase B was: lv/v % TFA+99 v/v % water. Elution conditions: 0 min to 25 min, 72 v/v % to 47 v/v % B (gradient elution); 25 min, 47 v/v % B (isocratic elution); and 25 min to 25.1 min, 47 v/v % to 0 v/v % B (gradient elution), the column was eluted at a flow rate of 1.0 mL/min. Whether WWNLN degraded at different pH values was determined based on the peak area and peak elution time of the liquid phase spectrum.

[7] = inhibitor 20 μM, Vmax decreased

For `CC(C)C[C@H](NC(=O)[C@H](CC(N)=O)NC(=O)[C@H](Cc1c[nH]c2ccccc12)NC(=O)[C@@H](N)Cc1c[nH]c2ccccc12)C(=O)N[C@@H](CC(N)=O)C(=O)O` [WWNLN, Trp-Trp-Asn-Leu-Asn], the IC50 (2019-nCoV M-pro [1]; 20 μM substrate, 2 nM M-pro, nonlinear fitting) was 6.69 µM, the Inhibition rate (2019-nCoV M-pro [1]; 20 μM substrate, 2 nM M-pro) was 74.13% and the Inhibition mode (2019-nCoV M-pro [2]) was “competitive inhibition and 0-10 μM: competitive inhibition”. The Inhibition mode (2019-nCoV M-pro [2]; [7]) was “non-competitive inhibition and 20 μM: non-competitive inhibition”, the “cytotoxicity to Vero-E6 cells” value (Vero-E6 cells) was “not toxic” and the viability at 24 h, 25 µM ([3]; Vero-E6, 25 μM) was 99.6 ± 1.58%. For the same compound, the viability at 24 h, 50 µM ([3]; Vero-E6, 50 μM) was 99.3 ± 2.02%, the viability at 24 h, 100 µM ([3]; Vero-E6, 100 μM) was 98.9 ± 1.99% and the viability at 24 h, 200 µM ([3]; Vero-E6, 200 μM) was 98.4 ± 2.15%. For the same compound, the viability at 24 h, 400 µM ([3]; Vero-E6, 400 μM) was 98 ± 2.41%, the “degradation after pepsin digestion” value ([4]; pepsin pH 2, 37° C., 1 h and 2 h) was “slightly degraded” and the remaining at 2 h, 100 μmol/L ([4]; then trypsin (simulated gastrointestinal digestion), digestion with pepsin and trypsin for 2 h, peak area comparison, read-out: retention rate after digestion) was 87.5%. The “thermal stability (degradation by peak area and elution time)” value [5] was “had not been degraded” and the “acid-base stability (degradation by peak area and elution time)” value [6] was “had not been significantly degraded”.
With `NC(=O)C[C@H](NC(=O)[C@H](Cc1ccc(O)cc1)NC(=O)[C@H](CC(N)=O)NC(=O)[C@H](Cc1c[nH]c2ccccc12)NC(=O)[C@@H](N)Cc1c[nH]c2ccccc12)C(=O)O` [WWNYN, Trp-Trp-Asn-Tyr-Asn] the Inhibition rate (2019-nCoV M-pro [1]; 20 μM substrate, 2 nM M-pro) was 59.36%, the IC50 (2019-nCoV M-pro [1]; unit printed as M in text) was 19.9 µM and the Inhibition mode (2019-nCoV M-pro [2]) was “competitive inhibition and 0-10 μM: competitive inhibition”. The Inhibition mode (2019-nCoV M-pro [2]; [7]) was “non-competitive inhibition and 20 μM: non-competitive inhibition”.
